# What was measured:
# [1] = target: recombinant SARS-CoV-2 main protease (Mpro) (Severe acute respiratory syndrome coronavirus 2, UniProt P0DTD1); assay: IC50 FRET assay, inhibition of recombinant SARS-CoV-2 main protease; conditions: Mpro 50 nM, substrate 10 μM
# [2] = system: SARS-CoV-2 (SARS-CoV2/ZG/297-20) in Vero E6 cells; assay: Antiviral assay in Vero E6 cells infected with SARS-CoV-2 (cell viability, Cell Titer Glo); conditions: Vero E6, MOI 0.05
# Experimental: Vero E6 cells (2×10^4/well) were seeded in 96 well plates one day before the experiment. Pre-treatment, the medium was removed and compounds were added at concentrations varying from 0.1-100 μM. After 24 h incubation, the medium was removed and cells were infected with MOI 0.05 SARS-CoV-2 SARS-CoV2/ZG/297-20. After 1 h infection, the viruses were removed and the same concentration of compounds were added back into the cells. After 72 h incubation at 37° C., EC50 measurements were made using ATP quantification (Cell Titer Glo).
smiles,measurement,setting,value
O=C1CCC(N2C(=O)c3cccc(OCCCCCCNC(=O)c4ccc5c(N6C(=O)NC7(CC(c8ccccc8Cl)C7)C6=O)cncc5c4)c3C2=O)C(=O)N1 (stereo not drawn),IC50,[1],< 1000 nM
same,Antiviral Activity 10 uM,[2]; 10 uM compound,E (<0%=E)
same,Antiviral Activity 50 uM,[2]; 50 uM compound,E (<0%=E)
